Anti-infective test results gathered from many reports (values: NIAID ChemDB through PubChem).

Shared fields: cytotoxicity tests; cell line: C8166; read-out: CC50

Conditions beyond the fields shown may differ between rows.

| smiles | method | result |
|---|---|---|
| COc1ccc(C2Nc3ccccc3-n3c2cc2c(C)cccc23)cc1 | MTT | 154 µg/mL |
| CC1=C[C@H]2[C@@]3(O)[C@H](C)[C@@H](OC(=O)CCCCCBr)[C@]4(OC(=O)CCCCCBr)[C@H]([C@@H]3C=C(CO)C[C@]2(O)C1=O)C4(C)C | MTT | 22.2 µM |
| C=Cc1c(C)ccc2c1CCC1C(C)(C)[C@@H](O)CC[C@]21C | - | 280 µM |
| COc1cc([C@H]2OC[C@H]3[C@@H]2CO[C@@H]3c2cc(OC)c(O)c(OC)c2)cc(OC)c1O | MTT | >200 µg/mL |
| COc1cc([C@H]2O[C@@H](c3ccc(O)cc3)[C@H](C)[C@@H]2C)ccc1O | MTT | 26.98 µg/mL |
| Cc1cc(S(N)(=O)=O)ccc1NC(=O)COc1ccc(Cl)cc1Oc1c(C)cc2ccccc2c1Cl | MTT / absorbance | 42.61 µM |
| COc1cc([C@H](O)[C@@H](C)Oc2c(O)cc(CC(C)C(C)Cc3cc(O)c(OC)c(OC)c3)cc2OC)ccc1O | MTT | >107 µg/mL |
| Cc1cccc2c1cc1n2-c2ccccc2NC1c1ccc(N(C)C)cc1 | MTT | 120 µg/mL |
| CCCCCCCCCCCCCC(=O)O[C@@H]1[C@@H](C)[C@@]2(O)[C@@H](C=C(COC(C)=O)C[C@]3(O)C(=O)C(C)=C[C@@H]23)[C@@H]2C(C)(C)[C@]12O | MTT | 25.26 µM |
| Cc1ccc(S(=O)(=O)Oc2ccc(Cl)c3c2C(=O)c2ccccc2C3=O)cc1 | MTT | >190.6 µg/mL |
| Cc1ccc(C)c(C(C)S(=O)(=O)c2c(C)ccc[n+]2[O-])c1 | - | 1.7 µg/mL |
| Cc1cccc2c1cc1n2-c2ccccc2NC1c1ccc([N+](=O)[O-])cc1 | MTT | >200 µg/mL |
| C=C(C)[C@@]12OC3(C)O[C@@H]1[C@@H]1[C@H](OC(=O)c4ccccc4)C4(C)O[C@@]5([C@@H]4OC(=O)c4ccccc4)[C@@H](OC(C)=O)[C@@H](C)C[C@H]5[C@@]1(O)[C@H](C)[C@@H]2O3 | MTT | >200 µg/mL |
| CC(=O)OC[C@H]1O[C@@H](n2cc(C)c(-n3cncn3)nc2=O)C[C@@H]1OC(C)=O | - | 80 µM |
| C=C(C)[C@@]1(OC(=O)c2ccccc2)[C@H](OC(C)=O)[C@@H]2[C@H](OC(C)=O)[C@@]3(C)O[C@@]4([C@@H]3OC(C)=O)[C@@H](OC(C)=O)[C@@H](C)C[C@H]4[C@@]2(O)[C@H](C)[C@@H]1OC(C)=O | MTT | 117 µg/mL |
| CCCCCCCC/C=C\CCCCCCCCOP(=O)([O-])OCC[NH2+]C | - | >100 µM |
| CC(=O)OC[C@H]1O[C@@H](n2ccc(-n3cncn3)nc2=O)C[C@@H]1OC(C)=O | - | >1000 µM |
| CC(=O)O[C@@]12[C@H](OC(=O)/C=C/c3ccc(Cl)cc3)[C@@H](C)[C@@]3(O)[C@@H](C=C(CO)C[C@]4(O)C(=O)C(C)=C[C@@H]34)[C@@H]1C2(C)C | MTT | 23.17 µM |
| Nc1ccn([C@@H]2CC[C@H](CO)O2)c(=O)n1 | - | >23.6 µM |
| C=C[C@]1(C)[C@@H](O)CC2=C(CCC3C(C)(C)[C@@H](O)CC[C@]23C)[C@@H]1O | - | 164 µM |
| CC(=O)OC[C@H]1O[C@@H](n2ccc(Oc3c(F)c(F)c(F)c(F)c3F)nc2=O)C[C@@H]1OC(C)=O | - | 100 µM |
| Cc1cc(S(N)(=O)=O)ccc1NC(=O)COc1ccc(F)cc1Oc1ccc2ccccc2c1Cl | MTT / absorbance | 47.05 µM |
| Nc1nc(=O)n([C@H]2CC[C@@H](CO)O2)cc1F | - | >2.2 µM |
| C=C(C)[C@@]1(OCc2ccccc2)[C@H](OC(C)=O)[C@@H]2[C@H](OC(C)=O)[C@@]3(C)O[C@@]4(C(C[C@H](C)[C@@H]4O)[C@@]2(O)[C@H](C)[C@@H]1OC(C)=O)[C@@H]3OC(C)=O | MTT | >0.2976 µM |
| C/C=C/C(=O)O[C@@H]1[C@@H](C)[C@@]2(O)[C@@H](C=C(CO)C[C@]3(O)C(=O)C(C)=C[C@@H]23)[C@@H]2C(C)(C)[C@]12OC(=O)/C=C/C | MTT | 77.6 µM |
| Cc1cc(S(N)(=O)=O)ccc1NC(=O)COc1ccc(Cl)cc1Oc1cc2ccccc2cc1C | MTT / absorbance | 76.71 µM |
| O=C1c2ccccc2C(=O)c2c(Cl)ccc(O)c21 | MTT | >128 µg/mL |
| OC[C@@H]1CC[C@H](n2cnc3c(NC4CCCCCC4)cc(Cl)nc32)O1 | - | 9 µM |
| CCC(=O)c1cn(S(=O)(=O)c2ccc(CC)cc2)c2ccccc12 | MTT | 27.7 µg/mL |
| O=c1ccn([C@@H]2O[C@H](CO)C=C2F)c(=O)[nH]1 | - | >100 µM |
| CCC(=O)c1cn(S(=O)(=O)c2ccc(CC)cc2)c2cc(C)ccc12 | MTT | 66.6 µg/mL |
| Nc1ccnc2c1ncn2[C@H]1CC[C@@H](CO)O1 | - | >1000 µM |
| COc1cc([C@H]2OC[C@H]3[C@@H]2CO[C@H]3c2cc(OC)c(O)c(OC)c2)cc(OC)c1O | MTT | >200 µg/mL |
| C=C(C)[C@@]12OC3(C)O[C@@H]1[C@@H]1[C@H](O)[C@@](C)(O)[C@@H](O)[C@@]4(O)[C@@H](C=C(C)[C@@H]4OC(C)=O)[C@@]1(O3)[C@H](C)[C@@H]2OCc1ccccc1 | MTT | 0.3024 µM |
| C/C=C/c1ccc2oc(-c3ccc(O)c(OC)c3)c(C)c2c1 | MTT | 92.9 µM |
| C=C(C)[C@@]12OC3(C)O[C@@H]1[C@@H]1[C@H](O)[C@@](C)(O)[C@@H](O)[C@@]4(O)[C@@H](C[C@H](C)[C@@H]4OC(C)=O)[C@@]1(O3)[C@H](C)[C@@H]2OCc1ccccc1 | MTT | 0.1176 µM |
| COc1cc(CC(CO)C2(Cc3ccc(O)c(OC)c3)CO2)ccc1O | MTT | >200 µg/mL |
| CCCCCCCCCCCCOP(=O)([O-])OCC[NH2+]C | - | >100 µM |
| Nc1cc(Cl)nc2c1ncn2[C@H]1CC[C@@H](CO)O1 | - | >1000 µM |
| CCC(=O)c1cn(S(=O)(=O)c2ccc(C)cc2)c2ccccc12 | MTT | 1.3 µg/mL |
| COc1cc(C[C@H]2CO[C@H](c3ccc(O[C@@H]4O[C@H](O)[C@@H](O)[C@H](O)[C@H]4O)c(OC)c3)[C@H]2CO)ccc1O | MTT | >200 µg/mL |
| CCC(=O)c1cn(S(=O)(=O)c2ccc(OC)cc2)c2ccccc12 | MTT | 10 µg/mL |
| CC1=C[C@H]2[C@@]3(O)[C@H](C)[C@@H](O)[C@]4(OC(=O)CCCC[C@@H]5SC[C@@H]6NC(=O)N[C@@H]65)[C@H]([C@@H]3C=C(CO)C[C@]2(O)C1=O)C4(C)C | MTT | >200 µM |
| COc1cc2c(c(OC)c1O)-c1c(cc(O)c(OC)c1OC)C[C@@H](C)[C@@H](C)C2 | MTT | >200 µg/mL |
| Cc1ccc(C)c(CS(=O)(=O)c2ccccn2)c1 | - | 30 µg/mL |
| C=C(C)[C@@]12OC3(c4ccccc4)O[C@@H]1[C@@H]1[C@H](O)[C@@](C)(O)[C@@H](OC(C)=O)[C@@]4(O)[C@@H](C[C@H](C)[C@@H]4O)[C@@]1(O3)[C@H](C)[C@@H]2OC(=O)c1ccccc1 | MTT | 9.76 µg/mL |
| C=C(C)[C@@]12OC3(C)O[C@@H]1[C@@H]1[C@H](O)[C@@](C)(O)[C@@H](OC(C)=O)[C@@]4(O)[C@@H](C=C(C)[C@@H]4O)[C@@]1(O3)[C@H](C)[C@@H]2OCc1ccccc1 | MTT | 0.1381 µM |
| CC(=O)Oc1ccc(Cl)c2c1C(=O)c1ccccc1C2=O | MTT | >133 µg/mL |
| C=C(C)[C@@]1(O)[C@@H]2OC3(C)O[C@H]1[C@@H](C)[C@@]1(O3)[C@H]2[C@H](OCc2ccccc2)[C@@]2(C)O[C@@]3([C@H]1C[C@H](C)[C@@H]3OC(C)=O)[C@@H]2OCc1ccccc1 | MTT | >0.2967 µM |
| CCC(=O)c1cn(S(=O)(=O)c2ccc(Cl)cc2)c2ccccc12 | MTT | >200 µg/mL |
| Cc1c2n(c3ccccc13)-c1ccccc1NC2c1ccc([N+](=O)[O-])cc1 | MTT | >200 µg/mL |
| CC1=C[C@@H]([C@H]2Oc3cc4c(c5c3[C@H](CC5)[C@@H]2C)CC[C@H]2C(C)(C)O[C@@H]3CC(=O)O[C@@]32C4)OC1=O | MTT | ~160 µg/mL |
| Cc1ccc(C)c(CS(=O)(=O)c2cccc[n+]2[O-])c1 | - | 9.8 µg/mL |
| CC(=O)OC[C@H]1O[C@@H](n2cc(C)c(-n3cncn3)nc2=O)C[C@@H]1N=[N+]=[N-] | - | 80 µM |
| Cc1cccc2c1cc1n2-c2ccccc2NC1c1ccccc1O | MTT | 90.81 µg/mL |
| COc1cc2c(c(O)c1OC)-c1c(cc3c(c1O)OCO3)C[C@H](C)[C@H](C)C2 | MTT | 34.28 µg/mL |
| COc1cc([C@H]2O[C@@H](c3ccc(O)c(OC)c3)[C@H](CO)[C@H]2C)ccc1O | MTT | 118 µg/mL |
| O=C(O)[C@H]1O[C@@H](Oc2cc3oc(-c4ccccc4)cc(=O)c3c(O)c2O)[C@H](O)[C@@H](O)[C@@H]1O | MTT | 102 µM |
| Cc1cccc2c1cc1n2-c2ccccc2NC1c1ccc(O)cc1 | MTT | >200 µg/mL |
| Cc1cc(S(N)(=O)=O)ccc1NC(=O)COc1ccc(Cl)cc1Oc1ccc2ccccc2c1 | MTT / absorbance | 119 µM |
| COc1cc(C[C@H]2CO[C@H](c3ccc(O[C@@H]4O[C@H](COC(C)=O)[C@@H](O)[C@H](O)[C@H]4O)c(OC)c3)[C@H]2CO)ccc1O | MTT | >200 µg/mL |
| Cc1ccc(C(C)S(=O)(=O)c2c(C)ccc[n+]2[O-])c(C)c1 | - | 6.9 µg/mL |
| C=C(C)[C@@]12OC3(C)O[C@@H]1[C@@H]1[C@H](O)[C@@](C)(O)[C@@H](OCc4ccccc4)[C@@]4(O)[C@@H](C=C(C)[C@@H]4OC(C)=O)[C@@]1(O3)[C@H](C)[C@@H]2OCc1ccccc1 | MTT | >0.29 µM |
| COc1cc([C@H]2c3cc(O)c(OC)cc3C[C@@H](CO)[C@@H]2CO)ccc1O | MTT | >200 µg/mL |

A second listing of 7 rows from above:

smiles | method | result
Nc1nc(=O)n([C@H]2CC[C@@H](CO)O2)cc1F | - | >2.2 µM
C=Cc1c(C)ccc2c1CCC1C(C)(C)[C@@H](O)CC[C@]21C | - | 280 µM
C=C(C)[C@@]12OC3(c4ccccc4)O[C@@H]1[C@@H]1[C@H](O)[C@@](C)(O)[C@@H](OC(C)=O)[C@@]4(O)[C@@H](C[C@H](C)[C@@H]4O)[C@@]1(O3)[C@H](C)[C@@H]2OC(=O)c1ccccc1 | MTT | 9.76 µg/mL
COc1cc(C[C@H]2CO[C@H](c3ccc(O[C@@H]4O[C@H](O)[C@@H](O)[C@H](O)[C@H]4O)c(OC)c3)[C@H]2CO)ccc1O | MTT | >200 µg/mL
COc1cc2c(c(OC)c1O)-c1c(cc(O)c(OC)c1OC)C[C@@H](C)[C@@H](C)C2 | MTT | >200 µg/mL
C=C(C)[C@@]12OC3(C)O[C@@H]1[C@@H]1[C@H](O)[C@@](C)(O)[C@@H](OCc4ccccc4)[C@@]4(O)[C@@H](C=C(C)[C@@H]4OC(C)=O)[C@@]1(O3)[C@H](C)[C@@H]2OCc1ccccc1 | MTT | >0.29 µM
C=C[C@]1(C)[C@@H](O)CC2=C(CCC3C(C)(C)[C@@H](O)CC[C@]23C)[C@@H]1O | - | 164 µM

CCn is the concentration with n% toxicity to the cells. Blank or dashed fields: not listed here.